Anti-infective test results gathered from many reports (values: NIAID ChemDB through PubChem).

Common to all: whole-cell or culture tests; species: Mycobacterium tuberculosis

Fold resistance: result on the changed form divided by that on wild type. MIC bound: limit read from a one-dose screen. Percent inhibition refers to the dose given; in toxicity tests it is the harm to the cells. MIC50, MIC90 and the like: level of inhibition, or share of isolates inhibited. a–b is a range or a potency band. Rows are shuffled and stem from different studies. ECn is the concentration giving n% inhibition of infection, replication or growth. Blank or dashed fields: not listed here.

smiles | strain or isolate | conditions | mutations | endpoint | dose | read by | result
O=C1CSC(c2ccccc2Br)N1C(=O)NCCCN1c2ccccc2Sc2ccccc21 | H37Rv | - | - | inhibition | 50 µg/mL | agar | 75%
Cc1cc(=O)cc(C)o1 | H37Rv | - | - | MIC | - | - | >100 µg/mL
CC(=S)NC1c2ccccc2Oc2ccccc21 | - | - | - | MIC bound | - | resazurin | >6.25 µg/mL
CO[C@H]1/C=C/O[C@@]2(C)Oc3c(C)c(O)c4c(O)c(c(/C=N/N5CCN(C6CCCC6)CC5)c(O)c4c3C2=O)NC(=O)/C(C)=C\C=C\[C@H](C)[C@H](O)[C@@H](C)[C@@H](O)[C@@H](C)[C@H](OC(C)=O)[C@@H]1C | Isolate 900216 drug-susceptible | - | - | MIC | - | - | 0.063 µg/mL
[Na+].[O-]c1ccccc1I | H37Rv | - | - | MIC | - | - | >100 µg/mL
CCOC(=O)Nc1cc(Nc2ccc(Cl)cc2)c([N+](=O)[O-])c(N)n1 | H37Rv | - | - | EC50 | - | - | >12.5 µg/mL
c1ccc2scnc2c1 | H37Rv | - | - | MIC | - | - | 100 µg/mL
CCc1nc2ccc(C)cc2n1CCCCSc1ccc(Cl)cc1 | H37Rv | - | Rv1339 V90M | MIC90 | - | turbidity / fluorescence | 12 µM
CCOC(=O)NCCNC(=O)OCC | H37Rv | - | - | MIC | - | - | >100 µg/mL
O=[N+]([O-])c1cn2c(n1)OC[C@@H](OCc1ccc(OCc3ccccc3)cc1)C2 | H37Rv | - | - | MIC | - | - | 0.1–0.2 µM
CO[C@H]1/C=C/O[C@@]2(C)Oc3c(C)c(O)c4c(=O)c(c5oc6cc(N7CCN(CC(C)C)CC7)cc(=O)c6nc5c4c3=C2O)NC(=O)/C(C)=C\C=C\[C@H](C)[C@H](O)[C@@H](C)[C@@H](O)[C@@H](C)[C@H](OC(C)=O)[C@@H]1C | Kurata | inside macrophages | - | inhibition | 1 µg/mL | - | 83.4%
[N-]=[N+]=NCc1cccc(C(=O)CC(=O)C(=O)O)c1 | H37Rv | - | - | inhibition | 6.25 µg/mL | resazurin | 0%
Fc1ccc(CNCCN(CCc2ccccc2)Cc2ccccc2)cc1 | - | - | - | MIC | - | - | 50 µM
CC1COc2c(N3CCN(C(N)=NC#N)CC3)c(F)cc3c(=O)c(C(=O)O)cn1c23 | ATCC 35827 | - | - | MIC | - | broth dilution | 0.625 µg/mL
CC1(C)CN(CCO)C(C)(C)CN1CCO | H37Rv | - | - | MIC | - | BACTEC | ≥12.8 µg/mL
O=[N+]([O-])c1cn2c(n1)OC[C@@H](OCc1ccc(OC(F)(F)F)cc1)C2 | H37Rv-14A1 (PA-824-resistant) | - | - | MIC | - | - | >100 µM
NC(=O)c1cnccn1 | H37Rv | - | - | MIC | - | - | 30 µg/mL
O=C(NCCCN1c2ccccc2Sc2ccccc21)N1C(=O)/C(=C\c2ccccc2)SC1c1ccccc1 | H37Rv | - | - | inhibition | 25 µg/mL | agar | 22%
CCOc1ccc(-n2c(-c3ccc(OC)cc3)cs/c2=N\NC(=O)COc2cnccn2)cc1 | H37Rv | - | - | MIC | - | - | 8.7 µg/mL
CC(=O)OCC1=C(COC(C)=O)C2OC1C1OC(=O)OC21 | H37Rv | - | - | MIC bound | - | BACTEC | >12.5 µg/mL
Cc1ccc(-c2cs/c(=N\NC(=O)COc3cnccn3)n2CC(C)C)cc1 | H37Rv | - | - | MIC | - | - | 13 µg/mL
O=C1CSC(c2ccccc2Cl)N1C(=O)NCCCN1c2ccccc2Sc2ccccc21 | H37Rv | - | - | inhibition | 50 µg/mL | agar | 60%
Cc1ccc(NNc2cc(=O)[nH]c(=O)[nH]2)cc1Cl | H37Rv | - | - | MIC bound | - | BACTEC | ≤12.5 µg/mL
CCc1nc2ccccc2n1CCCCNc1ccc(C)cc1 | H37Rv | - | - | MIC99 | - | turbidity / fluorescence | 0.5 µM
CC(=O)NC(C)(NC(C)=O)C(=O)O | H37Rv | - | - | MIC | - | - | >100 µg/mL
O=c1oc2ccccc2c(O)c1C1=N/C(=N\N=C\c2ccc(Cl)cc2)SC1 | H37Rv | - | - | inhibition | 12.5 µg/mL | BACTEC | 87%
O=CNc1ccc(Oc2ccc(NC=O)cc2)cc1 | H37Rv | - | - | MIC | - | - | >100 µg/mL
C/C(CCl)=N\NC1=NC(C)(CCl)P(=O)(NNc2ncccn2)S1 | H37Rv | - | - | inhibition | 12.5 µg/mL | BACTEC | 0%
O=C(NCCCN1c2ccccc2Sc2ccccc21)N1C(=O)/C(=C\c2ccccc2Cl)SC1c1ccccc1Cl | H37Rv | - | - | inhibition | 50 µg/mL | agar | 80%
Cc1cnc(C#N)c(C#N)n1 | H37Rv | - | - | MIC | - | BACTEC | ≥12.5 µg/mL
N[C@@H](Cc1cnc[nH]1)C(=O)O | H37Rv | - | - | MIC | - | - | >100 µg/mL
COc1ccc(CCNCCNCCc2ccccc2F)cc1 | - | - | - | MIC | - | - | 12.5 µM
O=C(COc1cnccn1)N/N=c1\scc(-c2ccc(F)cc2)n1-c1ccc(Cl)cc1 | H37Rv | - | - | MIC | - | - | 17 µg/mL
CCc1nc2ccccc2n1CCCCOc1cccc(C)c1 | H37Rv | - | Rv1339 V90M | fold resistance | - | turbidity / fluorescence | 6.7
Cl.OC1c2c(ccc3ccccc23)CCC1CN1CCCCC1 | H37Rv | - | - | MIC | - | - | >100 µg/mL
CCCCCCCCCCCNCCNCCCOCC | - | - | - | MIC | - | - | 25 µM
CC(C)n1c(-c2ccc(Cl)cc2Cl)cs/c1=N\NC(=O)COc1cnccn1 | H37Rv | - | - | MIC | - | - | 14 µg/mL
CC1COc2c(N3CCN(C)CC3)c(F)cc3c(=O)c(C(=O)O)cn1c23 | 37 strains (drug-resistant) | - | - | MIC50 | - | - | 1 µg/mL
COC(=O)c1c(C(=O)Nc2ccc(Cl)cc2)c(C)n(NC(N)=O)c1C | H37Rv | - | - | inhibition | 12.5 µg/mL | BACTEC | 0%
c1ccc(C(CCNCCN2CCCC3CCCCC32)c2ccccc2)cc1 | - | - | - | MIC | - | - | 12.5 µM
O=[N+]([O-])c1ccc(-n2nnc3ccccc32)nc1 | H37Rv | - | - | MIC | - | - | >100 µg/mL
O=c1[nH]c2ccccc2c(O)c1N=Nc1ccccc1 | H37Rv | - | - | inhibition | 6.25 µg/mL | resazurin | 97%
CC(NCCNCc1ccccc1F)C12CC3CC(CC(C3)C1)C2 | - | - | - | MIC | - | - | 50 µM
CCC1CN(c2c(F)cc3c(=O)c(C(=O)O)cn(C4CC4)c3c2OC)CCN1 | 47 (RFP-resistant) | - | - | MIC | - | - | 1 µg/mL
CCOC(=O)Nc1cc2ncc(CNc3ccc(C(=O)OCC)cc3)nc2c(N)n1 | H37Rv | - | - | EC50 | - | - | >12.5 µg/mL
COc1ccc(CNCCNCC(c2ccccc2)c2ccccc2)c(OC)c1 | - | - | - | MIC | - | - | 25 µM
CCOC(=O)Nc1cc2[nH]c(-c3ccccc3)nc2c(N(CCc2ccccc2)Cc2ccccc2)n1 | H37Rv | - | - | EC50 | - | - | <12.5 µg/mL
CCc1nc2ccc(C)cc2n1CCCSc1ccc(OC)cc1 | H37Rv | - | Rv1339 V90M | MIC90 | - | turbidity / fluorescence | 6.8 µM
COc1cc(NCCCO)c2ncccc2c1.Cl | H37Rv | - | - | MIC | - | - | >100 µg/mL
CC(=O)Oc1cc2c(=O)oc3cc(OC(C)=O)c(=O)oc3c2c(OC(C)=O)c1OC(C)=O | H37Rv | - | - | inhibition | 12.5 µg/mL | BACTEC | 2%
CCc1nc2ccccc2n1CCCCSc1nnnn1C | H37Rv | - | - | MIC99 | - | turbidity / fluorescence | >20 µM
CN(C)c1ccc(C(=O)C(=O)c2ccccc2)cc1 | H37Rv | - | - | MIC | - | - | >100 µg/mL
O=C(COc1cnccn1)N/N=C1\SCC(=O)N1c1ccc(Cl)cc1[N+](=O)[O-] | H37Rv | - | - | MIC | - | - | 85 µg/mL
Cc1ccc(C(C)C)c(OS(=O)(=O)c2ccc(Br)cc2)c1 | H37Rv | - | - | MIC | - | - | >100 µg/mL
Cc1c(N2CC3CCCNC3C2)c(F)cc2c(=O)c(C(=O)O)cn([C@@H]3C[C@@H]3F)c12 | 71 (RFP-resistant) | - | - | MIC | - | - | 0.05 µg/mL
O=C(O)CCCCCCCCC(=O)O | H37Rv | - | - | MIC | - | - | >100 µg/mL
Cc1ccc(/C=N/NC(=O)c2ccncc2)s1 | - | - | - | inhibition | 0.5 µM | BACTEC | 99%
CCOC(=O)Nc1cc2c(c(N)n1)N=C(c1cc(OC)cc(OC)c1)C(C)O2 | H37Rv | - | - | EC50 | - | - | <12.5 µg/mL
O=C1CN(c2cccc(Cl)c2)C(=O)CN1/N=C/c1ccco1 | H37Rv | - | - | MIC bound | - | BACTEC | >12.5 µg/mL
O=C(O)/C=C/c1ccccc1 | H37Rv | - | - | MIC | - | - | 50 µg/mL
COc1ccc2c(C)cc(N/N=C(\C)c3ccccn3)nc2c1 | H37Rv | - | - | inhibition | 12.5 µg/mL | BACTEC | 59%
CC(C)n1c(-c2ccc(F)cc2)cs/c1=N\NC(=O)COc1cnccn1 | H37Rv | - | - | MIC | - | - | 8.5 µg/mL
CC1=NN(C(=O)CC(=O)Nc2ccc(C(=O)O)cc2)C(=O)C1N=Nc1ccc(S(N)(=O)=O)cc1 | H37Rv | - | - | MIC | - | BACTEC | ≥12.8 µg/mL
COc1ccc2ncccc2c1N | H37Rv | - | - | MIC | - | - | >100 µg/mL
CC1COc2c(N3CCN(C)CC3)c(F)cc3c(=O)c(C(=O)O)cn1c23 | 001-005 (DRUG-SUS) | - | - | MBC | - | - | 4 µg/mL
CC(C)(C)C(CCC(=O)O)CC(=O)O | H37Rv | - | - | MIC | - | - | >100 µg/mL
C[C@H]1COc2c(N3CCN(C)CC3)c(F)cc3c(=O)c(C(=O)O)cn1c23 | 37 strains (drug-resistant) | - | - | MIC90 | - | - | 1 µg/mL
Cc1cc(C)c2c(=O)[nH][nH]c2n1 | H37Rv | - | - | MIC bound | - | BACTEC | >12.5 µg/mL
CCCCCCCCCCCNCCNC1CCCC1 | - | - | - | MIC | - | - | 50 µM
O=c1oc2ccc3ccccc3c2c(O)c1N=Nc1ccc(Cl)cc1 | H37Rv | - | - | inhibition | 6.25 µg/mL | resazurin | 88%
CCc1nc2ccccc2n1CCCCOc1ccc(Cl)cc1 | H37Rv | - | QcrB M342T | fold resistance | - | turbidity / fluorescence | >7.1
COc1ccc(OC)c(CCNCCNCc2ccc(OC)c(OC)c2)c1 | - | - | - | MIC | - | - | 6.25 µM
CC(=O)c1c(C)[nH]c(C(=O)N/N=C/c2cccc(Cl)c2)c1C | H37Rv | - | - | inhibition | 6.25 µg/mL | resazurin | 29%
COc1ccc(C2SCC(=O)N2C(=O)NCCCN2c3ccccc3Sc3ccccc32)cc1 | H37Rv | - | - | inhibition | 50 µg/mL | agar | 50%
Cc1ccc(-c2cc(O)c(-c3ccc(C)cc3)cc2O)cc1 | H37Rv | - | - | MIC | - | - | >100 µg/mL
CO[C@H]1[C@H](O)C[C@H](O[C@@H]2C[C@H](O[C@@H]3C[C@H](O[C@@H]4C(=O)c5c(cc6cc(O[C@H]7C[C@@H](O[C@H]8C[C@@H](O)[C@H](O)[C@@H](C)O8)[C@H](O)[C@@H](C)O7)c(C)c(O)c6c5O)C[C@H]4[C@H](OC)C(=O)[C@@H](O)[C@@H](C)O)O[C@H](C)[C@H]3O)O[C@H](C)[C@H]2O)O[C@@H]1C | H37Rv | - | - | MIC bound | - | - | >6.25 µg/mL
Cc1c(N2CC3CCCNC3C2)c(F)cc2c(=O)c(C(=O)O)cn(C3CC3)c12 | 56 (RFP-resistant) | - | - | MIC | - | - | 3.13 µg/mL
CCOC(=O)Nc1cc(Cl)c(N)c(N)n1 | H37Rv | - | - | EC50 | - | - | >12.5 µg/mL
Cc1ccccc1Sc1ccccc1N | H37Rv | - | - | MIC | - | - | 50 µg/mL
O=C1C=C(Nc2ccc([N+](=O)[O-])cc2Cl)c2ccccc2C1=O | H37Rv | - | - | MIC bound | - | resazurin | >6.25 µg/mL
CCc1ccc([C@H]2C[C@@H](C(F)(F)F)n3ncc(C(=O)NCc4ccc(OC)cc4)c3N2)cc1 | H37Rv | - | MmpL3: Ala249Pro | fold resistance | - | fluorescence | >8
CN(C)CCCNc1nnc(NCCCN(C)C)c2c(=O)c3sccc3[nH]c12 | H37Rv | - | - | inhibition | 6.25 µg/mL | resazurin | 21%
Cc1ccccc1N=Nc1c(O)c2cc(-c3ccccc3)ccc2oc1=O | H37Rv | - | - | MIC | - | resazurin | <6.25 µg/mL
CCCCC(CC)CN1CN(CC(CC)CCCC)CC(C)(NCCNCc2ccc(OC)cc2OC)C1 | - | - | - | MIC | - | - | 25 µM
S=c1ssc2ccccc12 | H37Rv | - | - | MIC | - | BACTEC | ≥12.5 µg/mL
Cc1ccc(O)c2c1C(=O)c1ccccc1C2=O | H37Rv | - | - | MIC | - | - | >100 µg/mL
Cc1ccc(NC(=S)NC(=O)/C=C/c2ccccc2)cc1Cl | H37Rv | - | - | MIC | - | - | >12.5 µg/mL
OC1(C#CC2(O)CCC3CCCCC3C2)CCC2CCCCC2C1 | H37Rv | - | - | MIC | - | - | >100 µg/mL

Repeating the first 4 entries:

{"smiles": "O=C1CSC(c2ccccc2Br)N1C(=O)NCCCN1c2ccccc2Sc2ccccc21", "strain or isolate": "H37Rv", "endpoint": "inhibition", "dose": "50 µg/mL", "read by": "agar", "result": "75%"}
{"smiles": "Cc1cc(=O)cc(C)o1", "strain or isolate": "H37Rv", "endpoint": "MIC", "result": ">100 µg/mL"}
{"smiles": "CC(=S)NC1c2ccccc2Oc2ccccc21", "endpoint": "MIC bound", "read by": "resazurin", "result": ">6.25 µg/mL"}
{"smiles": "CO[C@H]1/C=C/O[C@@]2(C)Oc3c(C)c(O)c4c(O)c(c(/C=N/N5CCN(C6CCCC6)CC5)c(O)c4c3C2=O)NC(=O)/C(C)=C\\C=C\\[C@H](C)[C@H](O)[C@@H](C)[C@@H](O)[C@@H](C)[C@H](OC(C)=O)[C@@H]1C", "strain or isolate": "Isolate 900216 drug-susceptible", "endpoint": "MIC", "result": "0.063 µg/mL"}